{"source": "patent US9481734B2", "about": "(Janssen Biotech, Inc., priority 2007, dated 2016)", "test_system": "human IgG1", "experiment": "Proteinase digestion of purified IgG1, Agilent biosizing", "assay_type": "biochemical", "conditions": "human IgG1 heavy chain, EU numbering; 1% (w/w) enzyme, pH 7.5, 37° C.", "procedure": "A purified monoclonal antibody comprising a human IgG heavy chain was contacted with the proteases described and sampling was conducted over various durations of contact. Fragmentation in the samples was evaluated using the Agilent microfluidics “lab-on-a-chip” technology for in vitro biosizing (Goetz H et al. Biochemical and Biophysical Methods 60; 281-293, 2004).\nProteinase digestions of purified IgGs were carried out at pH 7.5 in phosphate-buffered saline (PBS) or, for the metalloproteinases, in Tris-buffered saline buffer at 37° C. Calcium chloride was included in the metalloproteinase reactions at 1 mM for MMP-12 and 10 mM for MMP-3; otherwise no additives were used. Antibody concentrations were typically 1 or 2 mg/mL and reactions were initiated by addition of enzyme to a 1% (w/w) ratio to IgG. […]\nThe major proteolytic cleavage positions in the IgG1 hinge were identified for enzyme-generated fragments by N-terminal sequencing of the purified Fc fragment (MMP-3 and MMP-12) and/or high resolution mass spectrometric analyses of the purified Fab (neutrophil elastase, plasmin) and F(ab′)2 (cathepsin G, glutamyl endopeptidase and IdeS) fragments. Fragmentation was evaluated using the Agilent microfluidics “lab-on-a-chip” technology.", "data": [{"substance": "Glutamyl endopeptidase I (Glu V8 protease): Staph. aureus serine endopeptidase", "values": [{"measurement": "Cleaved Site", "result": "Glu^233-"}]}]}
